For test [1], the target named is WT HIV protease (Human immunodeficiency virus type 1 group M subtype B, UniProt P04585). In words: Enzymatic assay, WT IC50 (Table 11, CCLPPI activity). The test is classed as biochemical, HIV-1.
Test [2] has as its system HIV-1 84V90M. In words: Cell-based assay (MT-4) EC50, 84V90M. As to conditions: read-out: Cell-based assay (MT-4) EC50/nM 84V90M, MT-4, 84V90M.
Test [3] concerns WT HIV-1. In words: Cell-based assay (MT-4) EC50, WT. The following applies: read-out: Cell-based assay (MT-4) EC50/nM WT, MT-4, WT.
Test [4] concerns HIV-1 48V82A90M. In words: Cell-based assay (MT-4) EC50, 48V82A90M. As to conditions: read-out: Cell-based assay (MT-4) EC50/nM 48V82A90M, MT-4, 48V82A90M.
Test [5] has as its system HIV-1 30N82I88D. As to conditions: read-out: Cell-based assay (MT-4) EC50/nM 30N82I88D, MT-4, 30N82I88D.
Test [6] relates to HIV-1 46I50V. In words: Cell-based assay (MT-4) EC50, 46I50V. As to conditions: read-out: Cell-based assay (MT-4) EC50/nM 46I50V, MT-4, 46I50V.
Test [7] addresses recombinant HIV-1 protease (Human immunodeficiency virus type 1 group M subtype B, UniProt P04585). In words: HIV-1 Protease Enzyme Assay (Ki). The class given is biochemical.
Test [8] concerns HIV-1 48V54V82S. In words: Cell-based assay (MT-4) EC50, 48V54V82S. As to conditions: read-out: Cell-based assay (MT-4) EC50/nM 48V54V82S, MT-4, 48V54V82S.
The test system of test [9] is HIV-1 48V54V82A. In words: Cell-based assay (MT-4) EC50, 48V54V82A. As to conditions: read-out: Cell-based assay (MT-4) EC50/nM 48V54V82A, MT-4, 48V54V82A.
Test [10] addresses 84V90M HIV protease (Human immunodeficiency virus type 1 group M subtype B, UniProt P04585, I572V/L578M). In words: Enzymatic assay, 84V90M IC50 (Table 11). The test is classed as biochemical, HIV-1.
In test [11] the test system is wild-type HIV-1 strain IIIB. In words: Anti-HIV-1 Cell Culture Assay (EC50). The test is classed as cell-based. The arrangement: EC50 (nM): scale not given here.
For test [12], the system named is mutant HIV-1 I84V/L90M. In words: Resistance Evaluation, I84V/L90M fold change. The test is classed as cell-based.
The test system of test [13] is mutant HIV-1 I50V #1 (M46I/I47V/I50V). In words: Resistance Evaluation, I50V #1 fold change. The class given is cell-based.

Like-named read-outs stand apart in the source and are kept apart here.

Consider `CCOP(=O)(COc1ccc(C[C@@H]2[C@H](O)[C@@H](O)[C@@H](Cc3ccccc3)N(Cc3ccc4[nH]ncc4c3)C(=O)N2Cc2ccc3[nH]ncc3c2)cc1)OCC`, for which the IC50 in test [1] (read-out: WT IC50/nM, tested form: TFA) stood at 1.4 nM; in test [10] (read-out: 84V90M IC50/nM, tested form: TFA), 6.2 nM. The EC50 in test [2] (tested form: TFA) came to 40 nM; in [3] (tested form: TFA), 57 nM; in test [4] (tested form: TFA), 32 nM; in test [5] (tested form: TFA), 68 nM; in test [6] (tested form: TFA), 27 nM; in [8] (tested form: TFA) it was 26 nM. Moreover, the EC50 in test [9] (tested form: TFA) was determined as 28 nM. Further, the Ki (in general, the dissociation constant of the complex between target and ligand, obtained from inhibition or displacement) in test [7] (Enzymatic assay, tested form: TFA) is 0.02 nM.
Consider `CCNc1cccc(CN2C(=O)N(Cc3cccc(N)c3)C(Cc3ccc(O)cc3)C(O)C(O)C2Cc2ccc(OCP(=O)(OCC)OCC)cc2)c1` (centres unmarked), for which the IC50 in test [1] (read-out: WT IC50/nM) worked out at 8.7 nM; in test [10] (read-out: 84V90M IC50/nM) it was 67 nM. Besides, the EC50 in test [2] worked out at 1900 nM; in test [3] it was 286 nM; in test [4], 684 nM; in [5], 562 nM; in [6], 239 nM; in test [8], 1780 nM. In addition, the EC50 in test [9] turned out to be 789 nM.
Turning to `CCOP(=O)(COCC(C)(C)CN(C[C@@H](O)[C@H](Cc1ccccc1)NC(=O)O[C@H]1CO[C@H]2OCC[C@H]21)S(=O)(=O)c1ccc(OC)cc1)OCC`, the “EC50 (nM)” value in test [11] is reported as “+ + +”. For the same compound, the “Ki (pM)” value in test [7] is reported as “+ + +”.
Consider `CC(C)CN(C[C@@H](O)[C@H](Cc1ccc(OCP(=O)(O)O[C@@H](C)C(=O)O)cc1)NC(=O)O[C@H]1CO[C@H]2OCC[C@H]21)S(=O)(=O)c1ccccc1`, for which, in [7], the “Ki (pM)” value is “+ +”.
In the case of `CC(C)CN(C[C@@H](O)[C@H](Cc1ccc(N)cc1)NC(=O)O[C@H]1CO[C@H]2OCC[C@H]21)S(=O)(=O)c1ccc(OCP(=O)(OCc2ccccc2)OCc2ccccc2)cc1`, the I84V/L90M fold change result in [12] (mutant I84V/L90M vs wild type) is listed as “+ (>3 to ≦10)”. Moreover, in test [11], the EC50 lay in the range of 500 to 5000 nM. In test [7], the Ki was in the range of 0.1 to 1 nM.
In turn, `COc1ccc(S(=O)(=O)N(CC(C)C)C[C@@H](O)[C@H](Cc2cc[n+]([O-])cc2)NC(=O)O[C@H]2CO[C@H]3OCC[C@H]32)cc1` displayed an EC50 in test [11] above 5000 nM. In addition, the “Ki (pM)” value in test [7] was “+ +”.
In the case of `CC(C)CN(C[C@@H](O)[C@H](Cc1ccc(OCP(=O)(O)O[C@@H](C)C(=O)O)cc1)NC(=O)O[C@H]1CO[C@H]2OCC[C@H]21)S(=O)(=O)c1ccc[n+]([O-])c1`, the Ki in test [7] lay within 0.1 to 1 nM.
`Nc1n[nH]c2ccc(CN3C(=O)N(CCCO)[C@H](Cc4ccccc4)[C@H](O)[C@@H](O)[C@H]3Cc3ccccc3)cc12`: the figures for the IC50 in [1] (read-out: WT IC50/nM) and in test [10] (read-out: 84V90M IC50/nM) were 6.1 nM and 77 nM, respectively. Moreover, the EC50 in [2] was 2790 nM; in test [3], 356 nM; in test [5], 669 nM; in [6] it was 683 nM; in [9], 294 nM. Also, the Ki in test [7] (Enzymatic assay) was 0.65 nM.
With `Cc1c(O)cccc1C(=O)N[C@@H](Cc1ccc(OCP(=O)(OCc2ccccc2)OCc2ccccc2)cc1)[C@H](O)CN(CC(C)C)S(=O)(=O)c1ccc(N)cc1`, in [12] (mutant I84V/L90M vs wild type), the I84V/L90M fold change result is recorded as “− (≦3)”. Also, the “EC50 (nM)” value in [11] is “+ +”. In test [7], the “Ki (pM)” value is “+ +”. Also, in test [13] (mutant I50V (#1) vs wild type), the “I50V (#1) fold change” value is recorded as “+ (>3 to ≦10)”.
`CCCCOC(=O)[C@H](C)NP(=O)(COc1ccc(S(=O)(=O)N(CC(C)C)C[C@@H](O)[C@H](Cc2ccccc2)NC(=O)O[C@H]2CO[C@H]3OCC[C@H]32)cc1)N[C@@H](C)C(=O)OCCCC`: the I84V/L90M fold change result in test [12] (mutant I84V/L90M vs wild type) is given as “+ (>3 to ≦10)”. In test [11], the “EC50 (nM)” value is listed as “+ +”. Besides, the Ki in test [7] fell in the range of 0.1 to 1 nM. The “I50V (#1) fold change” value in test [13] (mutant I50V (#1) vs wild type) is recorded as “+ (>3 to ≦10)”.
With `CCOC(=O)[C@H](C)NP(=O)(COc1ccc(C[C@H](NC(=O)O[C@H]2CO[C@H]3OCC[C@H]32)[C@H](O)CN(CC(C)C)S(=O)(=O)c2ccc(OC)cc2)cc1)N[C@@H](C)C(=O)OCC`, in [11] (read-out: Anti-HIV-1 Cell Culture Activity EC50, MT2 cells, HIV-1 IIIB, 5 days, XTT), the EC50 came to 105 nM.
Regarding `CC(C)CN(C[C@@H](O)[C@H](Cc1ccc(OCP(=O)(OCc2ccccc2)OCc2ccccc2)cc1)NC(=O)O[C@H]1CO[C@H]2OCC[C@H]21)S(=O)(=O)c1cccnc1`, the “EC50 (nM)” value in [11] was “+ + +”. The “Ki (pM)” value in test [7] is on record as “+ +”.
As for `CC(C)CN(C[C@@H](O)[C@H](Cc1ccc(OCP(=O)(O)O)cc1)NC(=O)O[C@H]1CO[C@H]2OCC[C@H]21)S(=O)(=O)c1ccc[n+]([O-])c1`, the “Ki (pM)” value in test [7] is “+ +”.
As to `COc1ccc(S(=O)(=O)N(C[C@@H](O)[C@H](Cc2ccccc2)NC(=O)O[C@H]2CO[C@H]3OCC[C@H]32)CC(C)(C)CCOCP(=O)(OCc2ccccc2)OCc2ccccc2)cc1`, in [11], the “EC50 (nM)” value is listed as “+ + +”. The “Ki (pM)” value in test [7] was “+ +”.
In the case of `CC(C)CN(C[C@@H](O)[C@H](Cc1ccc(OCP(=O)(O)O[C@@H](C)C(=O)O)cc1)NC(=O)O[C@H]1CO[C@H]2OCC[C@H]21)S(=O)(=O)c1ccc(CO)cc1`, in test [7], the “Ki (pM)” value was “+ +”.
Consider `Nc1n[nH]c2ccc(CN3C(=O)N(Cc4cccc(C(=O)NCCCP(=O)(O)O)c4)[C@H](Cc4ccccc4)[C@H](O)[C@@H](O)[C@H]3Cc3ccccc3)cc12`, for which the EC50 in test [2] was above 6000 nM.
As for `CCOP(=O)(Cc1ccc(C[C@H](NC(=O)O[C@H]2CO[C@H]3OCC[C@H]32)[C@H](O)CN(CC(C)C)S(=O)(=O)c2ccc(OC)cc2)cc1)OCC`, in test [12] (EC50 of mutant I84V/L90M relative to wild type, class symbols), the I84V/L90M fold change result was “+ (>3 to ≦10)”. For the same compound, the “I50V (#1) fold change” value in test [13] (EC50 of mutant M46I/I47V/I50V relative to wild type, class symbols) is “+ (>3 to ≦10)”.
For `CC(C)CN(C[C@@H](O)[C@H](Cc1ccc(OCP(=O)(O)O[C@@H](C)C(=O)O)cc1)NC(=O)O[C@H]1CO[C@H]2OCC[C@H]21)S(=O)(=O)c1ccc(F)cc1`, in test [7], the “Ki (pM)” value is reported as “+ +”.
On the same count and under the same terms, under `CC(C)CN(C[C@@H](O)[C@H](Cc1ccc(OCP(=O)(O)O[C@@H](C)C(=O)O)cc1)NC(=O)O[C@H]1CO[C@H]2OCC[C@H]21)S(=O)(=O)c1cccnc1` stands “+ +”.
